Measured values from paper PMC4287178.

Tested on: NtrC-6xHis
Experiment: EMSA
Details: 0-16 uM NtrC, poly(dI-dC) 50 ng/uL, BSA, 40 min at 4 C, pH not stated, recombinant protein, residues 1-470, protein details: C-terminal 6xHis, label: biotin end label, probe letters rebuilt from the primers and the genome

CAGGATCACAAACATCCTCCGCAAACAAGTATTGCAGAGTCCCTTTGTGATCGCTTTCACGGAGCATAAAAAGGGTTATCCAAAGGTCATTGCACCAACATGGTGCTTAATGTTTCCATTGAAGCACTATATTGGTGCAACATTCACATCGTGGTGCAGCCCTTTTGCACGATGGTGCGCATGATAACGCCTTTTAGGG (double strand) [glnAP2 promoter probe]
binding result: binds

For at least one entry, the source does not settle the construct or the ends of the probe.
